## Screening data, single-dose tests

The filed quantity is “Percent Effect” (%). How 0% and 100% were set is not recorded. Most values in the screen are low, and negative values occur. Many other results are left out here, so strong results are more common than in the screen.

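Growth of Mycobacterium tuberculosis over 3 days (7H9 medium with glucose and tyloxapol); the read-out is not stated. Compounds at 500 µM. Higher reads as more growth inhibition (inferred: compounds with an IC50 in retests scored well above the rest). Size under these conditions: about 18,000 compounds, about 1,400 of them at 50% or above in at least one test.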

SMILES | effect
CCn1ccnc(NC2CC2)c1=O | 4.682%
Cc1cc(C)c(C#N)c(SCC(=O)N2CCCC2)n1 | 20.73%
CN(C)C1CCN(CC(=O)NCCc2ccnn2C)C1 (centres unmarked) | -2.475%
CCc1cc(C)c(C(=O)Nc2ccc(C(N)=O)nc2)o1 | 78.26%
CSC(C)C(=O)N1CCOC(C)(C)C1 (centres unmarked) | -4.561%
CCOc1ccnc(NCCc2nncn2CC)n1 | 6.35%
Cn1nnnc1SC(C(N)=O)c1ccc(Br)cc1 (centres unmarked) | 39.73%
CCc1cccc2c1N(C(=O)CNC)CC2 | 50.51%
COc1ccc(NC(=O)N(C)CCO)c(Br)c1 | 27.84%
CC1=CCN(Cc2cccc(OCC(N)=O)c2)CC1 | -23.83%
NC1CCCOc2c(Cl)cccc21 (centres unmarked) | 24.65%
O=C(NCc1nnc2n1CCCCC2)c1ccoc1 | 1.34%
CN(Cc1ccccc1)C(=O)CCN | 10.04%
CNCc1cccc(OC)n1 | 8.913%
O=C(NCc1nccs1)c1csc(NC2CC2)n1 | 49.26%
O=C(CN1CC(O)(C2CC2)C1)Nc1ccccc1F | 26.85%
COc1ccc(CC(=O)N2CCCNCC2)cc1 | 46.73%
Cc1cccc(CC(=O)N2CCn3cnnc3C2)c1 | 58.91%
N#Cc1cccc(OCCSc2nnc[nH]2)c1 | 37.9%
CCN1CCCC1CNC(=O)NCCN1CCOCC1 (centres unmarked) | -3.233%
CCCc1nnc(NCc2ccc(C)cn2)o1 | 66.55%
O=C(NCCCN1CCCCC1CO)c1cnn[nH]1 (centres unmarked) | -1.211%
OC(Cc1ccncc1)C(F)(F)F (centres unmarked) | -0.3537%
COc1cccc(CN2CCC3(CC2)OCC(C)O3)c1 (centres unmarked) | 59.6%
CCN(CC)C(=O)COC(=O)c1ccc(O)cc1O | 20.67%
CN1CCN(C(=O)Cn2ccc(N)n2)CC1 | -5.576%
CC(C)(C)OC(=O)N1CCn2ccnc2C1 | 6.674%
CCCNC(=O)c1ccc2ncn(C)c(=O)c2c1 | 0.543%
Cc1nc(CCNC(=O)c2ccc(=O)n(C)c2)sc1C | 18.79%
CCN(Cc1cscn1)Cc1nc(COC)no1 | 11.74%
Cc1cc(N2CCCC(NS(C)(=O)=O)C2)nc(C)n1 (centres unmarked) | -7.928%
CC(NC(=O)c1cc(N(C)C)ccn1)c1ncon1 (centres unmarked) | 1.797%
COC(=O)C(C)OC(=O)c1cccnc1SC (centres unmarked) | 50.32%
Cn1ncc(CN)c1C(F)(F)F | -1.92%
O=C1NC(Cc2ccccc2)C(=O)Nc2ccccc21 (centres unmarked) | 18.08%
CC(C)(C)C(=O)Nc1nc(-c2ccncc2)n[nH]1 | -0.4811%
O=C(Cc1ccc(-n2cnnn2)cc1)N1CCCCO1 | 8.146%
CCCOC1CCCN(C(=O)CSc2nc(C)n[nH]2)C1 (centres unmarked) | 13.26%
CN1CCC(Nc2ccc(Br)cn2)CC1 | 36.52%
CCC(C)CN(C)CCN (centres unmarked) | 10.57%
O=C(Nc1nc(C2CC2)cs1)C1CNCCO1 (centres unmarked) | 19.72%
NC(=O)CN1CCCN(c2nccs2)CC1 | 13.89%
NCc1ccnc(OCC(F)(F)F)c1 | 77.07%
O=C(NCC1CCNCC1)Nc1nncs1 | -0.7878%
CC(=O)c1c(C)[nH]c(C(=O)OCC(=O)N(C)C)c1C | 76.27%
COCC1CCN(C(=O)c2cc(C3CC3)on2)CC1 | 59.73%
COCCCNC(=O)c1coc(Br)c1 | 62.93%
Nc1nc(CCNC(=O)CSCCN2CCCC2)cs1 | 21.1%
COc1cc(-c2cc(N)n[nH]2)cc(OC)c1OC | 11.91%
O=C(c1ccc(OCC2CC2)cc1)N1CC(O)C1 | 33.96%
Cc1nnc(SCC(N)=O)[nH]1 | 1.792%

For reference, 6 entries once more:

SMILES	effect
COCCCNC(=O)c1coc(Br)c1	62.93%
N#Cc1cccc(OCCSc2nnc[nH]2)c1	37.9%
CN1CCC(Nc2ccc(Br)cn2)CC1	36.52%
CCCNC(=O)c1ccc2ncn(C)c(=O)c2c1	0.543%
NC1CCCOc2c(Cl)cccc21 (centres unmarked)	24.65%
CCc1cccc2c1N(C(=O)CNC)CC2	50.51%

Measurements from “University of Dundee, Small-Polar-MMV Screening Library” (2021), ChEMBL document CHEMBL3988442.